Measured values as given in PubChem BioAssay AID1159524 (National Center for Advancing Translational Sciences (NCATS), 2015).
The entries are a selection whose mix differs from that of the whole data set. Records with an inconclusive call do not appear. The source made the active and inactive calls. The call rests on the fitted dose curve; tested in HEK293T cells.
On the % scale 0 is the no-effect control and ±100 the full control effect.

Assay: High Throughput Screening for Foot and Mouth Disease Virus Antivirals; further: read-out not given here; nearly all actives have a fitted effect of over 45% in size
Settings: FMDV antiviral cell-based qHTS; series mostly up to 57.9 µM; activity change, negative = inhibition: at the top concentration
With `O=[N+]([O-])c1cc([N+](=O)[O-])c(CCNc2ccccc2)c([N+](=O)[O-])c1` the “activity change, negative = inhibition” value was inactive: -22%.
For `Cc1ccc(NP(=O)(Oc2ccccc2)Oc2ccccc2)nc1`, the “activity change, negative = inhibition” value was inactive: 45.8%.
For `COc1ccc(C2=NCC(CBr)S2)cc1` (stereo unspecified), the “activity change, negative = inhibition” value was inactive: 25.4%.
In the case of `CCN(CC)CC(O)COC(=O)C(O)(c1ccccc1)C1CCCCC1` (stereo unspecified), the “activity change, negative = inhibition” value is reported as inactive: -8.73%.
In the case of `COC(=O)C1(C)COP(=O)(Nc2ccccc2)OC1` (stereo unspecified), the “activity change, negative = inhibition” value is reported as inactive: -0.023%.
For `O=[N+]([O-])c1cccc(NC2=NCC(CBr)S2)c1` (stereo unspecified), the “activity change, negative = inhibition” value was inactive: 9.35%.
For `O=C(O)CNc1ccc([As](=O)(O)O)cc1`, the “activity change, negative = inhibition” value was inactive: -3.87%.
For `CC(C)(C)C(=O)NC(Sc1ccncn1)C(Cl)(Cl)Cl` (stereo unspecified), the “activity change, negative = inhibition” value was inactive: -16.6%.
With `O=[N+]([O-])c1ncn(CCn2ncnc2[N+](=O)[O-])n1` the “activity change, negative = inhibition” value was inactive: -7.33%.
For `O=C(Nc1cc([As](=O)(O)O)ccc1O)c1ccccc1`, the “activity change, negative = inhibition” value was inactive: -8.33%.
With `O=P1(N(CCCl)CCCl)OCCCS1` (stereo unspecified) the “activity change, negative = inhibition” value was inactive: 12.4%.
In the case of `C(Cc1nn[nH]n1)Cc1nn[nH]n1`, the “activity change, negative = inhibition” value is reported as inactive: -16.1%.
For `Nc1ccc([As](=O)(O)c2ccc([N+](=O)[O-])cc2)cc1`, the “activity change, negative = inhibition” value was inactive: 25.6%.
With `O=C(OC1CN2CCC1CC2)c1cccc(Cl)c1` (stereo unspecified) the “activity change, negative = inhibition” value was inactive: -5.13%.
In the case of `O=[N+]([O-])c1ncn(CCn2cnc([N+](=O)[O-])n2)n1`, the “activity change, negative = inhibition” value is reported as inactive: -11.1%.
In the case of `O=[N+]([O-])c1ccc(OP2(=O)COCCO2)cc1` (stereo unspecified), the “activity change, negative = inhibition” value is reported as inactive: -4.46%.
With `O=[As](O)(c1ccccc1)c1ccc(O)cc1` the “activity change, negative = inhibition” value was inactive: 6.37%.
With `C[C@H]1OP(=O)(Oc2ccccc2)[C@H](O)[C@H](O)[C@H]1N=[N+]=[N-]` (stereo partly specified) the “activity change, negative = inhibition” value was inactive: -10.3%.
With `O=P(Nc1nc2ccccc2s1)(c1ccccc1)c1ccccc1` the “activity change, negative = inhibition” value was inactive: 74.6%.
With `CN(C)CCOC(=O)C(O)(c1ccccc1)C1CCCCC1` (stereo unspecified) the “activity change, negative = inhibition” value was inactive: -1.71%.
For `COc1ccc(N)c([N+](=O)[O-])c1[N+](=O)[O-]`, the “activity change, negative = inhibition” value was inactive: 0.924%.
For `CN(C)C1(CNC(=O)c2ccc(Cl)c(S(N)(=O)=O)c2)CCCCC1`, the “activity change, negative = inhibition” value was inactive: -7.46%.
In the case of `O=P(Nc1ccccn1)(c1ccc(Br)cc1)c1ccc(Br)cc1`, the “activity change, negative = inhibition” value is reported as inactive: 66.4%.
With `CCN(CCCl)Cc1ccccc1C` the “activity change, negative = inhibition” value was inactive: -13.3%.
With `c1nnnn1CCn1cnnn1` the “activity change, negative = inhibition” value was inactive: 1.69%.
In the case of `O=P(Nc1nccs1)(c1ccccc1)c1ccccc1`, the “activity change, negative = inhibition” value is reported as inactive: -9.77%.
In the case of `CC(C)C(=O)NC(Sc1ccccc1)C(Cl)(Cl)Cl` (stereo unspecified), the “activity change, negative = inhibition” value is reported as inactive: -12.1%.
With `CC(=O)Nc1ccc(Oc2c([N+](=O)[O-])cc([N+](=O)[O-])cc2[N+](=O)[O-])cc1` the “activity change, negative = inhibition” value was inactive: -8.79%.
In the case of `CC(=O)Nc1ccc([As](=O)(O)O)c(O)c1`, the “activity change, negative = inhibition” value is reported as inactive: -13.9%.
In the case of `COC(=O)C1(C)COP(=O)(NCc2ccccc2)OC1` (stereo unspecified), the “activity change, negative = inhibition” value is reported as inactive: -20.8%.
In the case of `CC(=O)c1ccc(N2CC2c2ccncc2)cc1` (stereo unspecified), the “activity change, negative = inhibition” value is reported as inactive: -1.46%.
For `C[C@H]1OP(=O)(Oc2ccccc2)C[C@@H]2O[C@@H]21` (stereo partly specified), the “activity change, negative = inhibition” value was inactive: -14.1%.
With `C[C@@H]1C=CCP(=O)(Oc2ccccc2)O1` (stereo partly specified) the “activity change, negative = inhibition” value was inactive: -6.36%.
For `Cc1ccccc1CN(C)C(=O)COC(=O)C(O)(c1ccccc1)c1ccccc1`, the “activity change, negative = inhibition” value was inactive: -0.809%.
With `CCc1cc(O)c([N+](=O)[O-])c(C)c1[N+](=O)[O-]` the “activity change, negative = inhibition” value was inactive: -25.5%.
In the case of `CC(C)(C)C(=O)NC(Sc1ccccc1)C(Cl)(Cl)Cl` (stereo unspecified), the “activity change, negative = inhibition” value is reported as inactive: -17.8%.
With `CCOc1ccc(C2=NCC(CBr)S2)cc1` (stereo unspecified) the “activity change, negative = inhibition” value was inactive: 6.65%.
For `O=P1(Nc2nc3ccc(Cl)cc3s2)COc2ccccc2O1` (stereo unspecified), the “activity change, negative = inhibition” value was inactive: 15%.
For `CN(C)C(=O)Oc1noc2ccccc12`, the “activity change, negative = inhibition” value was inactive: -6.7%.
For `Cc1ccc(OP(=O)(Nc2ccccn2)Oc2ccc(C)cc2)cc1`, the “activity change, negative = inhibition” value was inactive: -18.8%.
For `CC(=O)NC(SC(=S)N(CC(C)C)CC(C)C)C(Cl)(Cl)Cl` (stereo unspecified), the “activity change, negative = inhibition” value was inactive: 0%.
With `COC(=O)c1cc2c(s1)N=C(c1ccccc1)N(C)P2(=O)N1CCOCC1` (stereo unspecified) the “activity change, negative = inhibition” value was inactive: -5.69%.
For `CCC(=O)N1C2C3N(C(=O)CC)C1C1N(C(=O)CC)C(C(N1C(=O)CC)N3C(=O)CC)N2C(=O)CC`, the “activity change, negative = inhibition” value was inactive: -0.0905%.
In the case of `CCN(CC)CCCOC(=O)C(O)(c1ccccc1)C1CCCCC1` (stereo unspecified), the “activity change, negative = inhibition” value is reported as inactive: -11.6%.
For `O=C(OC1CN2CCC1CC2)c1ccccc1` (stereo unspecified), the “activity change, negative = inhibition” value was inactive: -10.2%.
With `O=P1(N(CCCl)CCCl)OCCC2CCCCN21` (stereo unspecified) the “activity change, negative = inhibition” value was inactive: 0.551%.
In the case of `O=C(NC1CCS(=O)(=O)C1)NP(=S)(Oc1ccccc1)Oc1ccccc1` (stereo unspecified), the “activity change, negative = inhibition” value is reported as inactive: 107%.
For `CCNC(=S)/N=C(\N)N[N+](=O)[O-]`, the “activity change, negative = inhibition” value was inactive: -10.4%.
For `Cc1ccc(NP(=O)(Oc2cccc(C)c2)Oc2cccc(C)c2)nc1`, the “activity change, negative = inhibition” value was inactive: 22.8%.
In the case of `c1ccc(-c2nn[nH]n2)c(-c2nn[nH]n2)c1`, the “activity change, negative = inhibition” value is reported as inactive: -3.2%.
In the case of `CN(C(=O)Cc1ccc(Cl)c(Cl)c1)[C@H]1CC[C@@]2(CCCO2)C[C@@H]1N1CCCC1`, the “activity change, negative = inhibition” value is reported as inactive: -13.8%.
In the case of `O=[N+]([O-])c1ccc2c(c1)nnn2O`, the “activity change, negative = inhibition” value is reported as inactive: 2.56%.
In the case of `CN(C(=O)Cc1ccccc1)[C@@H]1CC[C@]2(CCCO2)C[C@H]1N1CCCC1`, the “activity change, negative = inhibition” value is reported as inactive: -12.9%.
In the case of `N#CCCN(C(=O)COC(=O)C(O)(c1ccccc1)c1ccccc1)c1ccc(F)cc1`, the “activity change, negative = inhibition” value is reported as inactive: -22.7%.
With `O=C(O)COc1ccc([As](=O)(O)O)cc1[N+](=O)[O-]` the “activity change, negative = inhibition” value was inactive: -6.22%.
For `Nc1ccccc1[As](=O)(O)c1ccccc1`, the “activity change, negative = inhibition” value was inactive: 3.75%.
With `O=P(Nc1nccs1)(Oc1ccccc1)Oc1ccccc1` the “activity change, negative = inhibition” value was inactive: 0%.
With `O=P(Nc1nccs1)(c1ccccc1)c1nc2ccccc2s1` (stereo unspecified) the “activity change, negative = inhibition” value was inactive: -0.486%.
With `CCOP(=O)(Nc1cccc2ccccc12)OCC` the “activity change, negative = inhibition” value was inactive: -9.6%.
For `CCCOP(=S)(Nc1nc(N)cc(=O)[nH]1)OCCC`, the “activity change, negative = inhibition” value was inactive: 7.06%.
In the case of `Nc1cccc2c([As](=O)(O)O)cccc12`, the “activity change, negative = inhibition” value is reported as inactive: -8.68%.
With `Cc1ccc(NCCc2c([N+](=O)[O-])cc([N+](=O)[O-])cc2[N+](=O)[O-])cc1` the “activity change, negative = inhibition” value was inactive: -3.96%.
With `Cc1cccc(OCC(=O)OC2CN3CCC2CC3)c1` (stereo unspecified) the “activity change, negative = inhibition” value was inactive: -17.5%.
With `O=[As](O)(c1cccc(O)c1)c1cccc(O)c1` the “activity change, negative = inhibition” value was inactive: -8.69%.
In the case of `CS(=O)(=O)c1ccc(Cl)c(NC(=O)COC(=O)C(O)(c2ccccc2)c2ccccc2)c1`, the “activity change, negative = inhibition” value is reported as inactive: 0%.
With `O=[As](O)(O)c1cccnc1` the “activity change, negative = inhibition” value was inactive: -5.21%.
With `COc1cc(C(=O)NCC2(N3CCOCC3)CCCCC2)cc(Cl)c1OC(C)C` the “activity change, negative = inhibition” value was inactive: 3.92%.
For `O=C(OC1CN2CCC1CC2)c1ccc(Cl)cc1` (stereo unspecified), the “activity change, negative = inhibition” value was inactive: -10.5%.
With `CC1(CBr)Cn2c(nc3ccccc3c2=O)S1` (stereo unspecified) the “activity change, negative = inhibition” value was inactive: -4.65%.
In the case of `Cc1ccc(S(=O)(=O)N(CCCN)CCCc2c(C)nc(N)[nH]c2=O)cc1.O=[N+]([O-])c1cc([N+](=O)[O-])c(O)c([N+](=O)[O-])c1`, the “activity change, negative = inhibition” value is reported as inactive: -5.21%.
For `CN(C(=O)Cc1ccc(Cl)c(Cl)c1)[C@@H]1CCCC[C@H]1N1CCCC1`, the “activity change, negative = inhibition” value was inactive: 9.31%.
In the case of `CC(C)/C=N\N=C(\N)N[N+](=O)[O-]`, the “activity change, negative = inhibition” value is reported as inactive: 15.5%.
For `COc1ccccc1CNC(=O)COC(=O)C(O)(c1ccccc1)c1ccccc1`, the “activity change, negative = inhibition” value was inactive: -18.6%.
In the case of `CC(C)(C)C(=O)NC(Sc1ncccn1)C(Cl)(Cl)Cl` (stereo unspecified), the “activity change, negative = inhibition” value is reported as inactive: -23.3%.
For `Clc1n[nH]nc1-c1nn[nH][15n]1`, the “activity change, negative = inhibition” value was inactive: -0.709%.
In the case of `O=P1(N(CCCl)CCCl)NCCC(C(F)(F)F)O1` (stereo unspecified), the “activity change, negative = inhibition” value is reported as inactive: -10%.
